Values from PubChem BioAssay AID1259414 (Drosophila RNAi Screening Center, 2018)
The deposit covers about 24,000 reagents; shown is an unselected part of those with a known target gene and a result. In the full data, about 1,210 (5%) got an active call. 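Inactive calls also include excluded dsRNAs with several or no targets, genes unexpressed in JW18, and well A1, regardless of score.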 A number with no mark means an inactive call. Names joined by + are all predicted targets of the reagent.

Assay: 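Genome-wide screen for host control of endosymbiont load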 (primary screen)
Cells: Drosophila JW18 cells infected with Wolbachia
Knock-down reagent: long dsRNA against Drosophila genes, 0.25 µg dsRNA per well of a 384-well plate
Time to read-out: 5 days
Challenge: cells persistently infected with Wolbachia before knock-down; no added drug
Measured: 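Imaged fluorescence in situ signal for Wolbachia 23S rRNA per DAPI-counted host cell, given as a robust z-score within each plate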
Direction: Wolbachia per cell robust z: higher = more Wolbachia per host cell than the plate typical
Active means: 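Hit when robust z is 1.5 or more, or -1.5 or less, in at least two of three replicates; excludes dsRNAs with several or no targets, genes not expressed in JW18 and well A1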

With CG5768 [DRSC15870], how do the results read?
Wolbachia per cell robust z, rep 1: -0.0166; Wolbachia per cell robust z, rep 2: -4.23; Wolbachia per cell robust z, rep 3: -0.486

Which result is listed for Tsen34 + Trl [DRSC10014]?
Wolbachia per cell robust z, rep 1: -1.37; Wolbachia per cell robust z, rep 2: -2.27; Wolbachia per cell robust z, rep 3: -1.05

With Nep3 [DRSC20685], what does the deposit list?
Wolbachia per cell robust z, rep 1: 0.452; Wolbachia per cell robust z, rep 2: -0.241; Wolbachia per cell robust z, rep 3: 0.452

What did the screen give for Nep3 [DRSC29285]?
Wolbachia per cell robust z, rep 1: -5.52; Wolbachia per cell robust z, rep 2: 1.01; Wolbachia per cell robust z, rep 3: 0.431

What did the screen give for Ca-Ma2d [DRSC29730]?
Wolbachia per cell robust z, rep 1: 0.878; Wolbachia per cell robust z, rep 2: 0.271; Wolbachia per cell robust z, rep 3: 0.981

How did the screen score Phyhd1 [DRSC14911]?
Wolbachia per cell robust z, rep 1: 0.0559; Wolbachia per cell robust z, rep 2: -2.03; Wolbachia per cell robust z, rep 3: -0.717

For Phyhd1 [DRSC26408], what does the deposit list?
Wolbachia per cell robust z, rep 1: 0.413; Wolbachia per cell robust z, rep 2: 0.0588; Wolbachia per cell robust z, rep 3: -1.23

With CG42263 [DRSC40586], what does the deposit list?
Wolbachia per cell robust z, rep 1: 0.63; Wolbachia per cell robust z, rep 2: -0.719; Wolbachia per cell robust z, rep 3: -0.349

With CG43123 [DRSC05049], what does the deposit list?
Wolbachia per cell robust z, rep 1: -0.984; Wolbachia per cell robust z, rep 2: 0.0609; Wolbachia per cell robust z, rep 3: -1.8

How did the screen score CG4666 [DRSC18379]?
Wolbachia per cell robust z, rep 1: -3.09; Wolbachia per cell robust z, rep 2: 0.824; Wolbachia per cell robust z, rep 3: 0.529

Which result is listed for CG14257 [DRSC14752]?
Wolbachia per cell robust z, rep 1: 0.207; Wolbachia per cell robust z, rep 2: -2.54; Wolbachia per cell robust z, rep 3: -1.13

How did the screen score CG14257 [DRSC27835]?
Wolbachia per cell robust z, rep 1: -0.76; Wolbachia per cell robust z, rep 2: -0.34; Wolbachia per cell robust z, rep 3: -0.307

Part of the list above, set out differently.
{"target": "CG4666", "amplicon": "DRSC18379", "Wolbachia per cell robust z, rep 1": -3.09, "Wolbachia per cell robust z, rep 2": 0.824, "Wolbachia per cell robust z, rep 3": 0.529}
{"target": "CG14257", "amplicon": "DRSC14752", "Wolbachia per cell robust z, rep 1": 0.207, "Wolbachia per cell robust z, rep 2": -2.54, "Wolbachia per cell robust z, rep 3": -1.13}
